PubChem BioAssay AID1259414 | Drosophila RNAi Screening Center, 2018
The screen tested about 24,000 reagents; shown is a random part of those with a known target gene and a result. Of all reagents, about 1,210 (5%) got an active call. 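Inactive calls also include excluded dsRNAs with several or no targets, genes unexpressed in JW18, and well A1, regardless of score.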

- Assay: 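Fly genes that alter Wolbachia amount inside host cells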 (primary screen)
- System: Drosophila JW18 cells infected with Wolbachia
- Reagent: long dsRNA against Drosophila genes, 0.25 µg dsRNA per well of a 384-well plate
- Time to read-out: 5 days
- Treatment: cells persistently infected with Wolbachia before knock-down; no added drug
- Measured: 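Imaged fluorescence in situ signal for Wolbachia 23S rRNA per DAPI-counted host cell, given as a robust z-score within each plate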
- Reading the numbers: Wolbachia per cell robust z: higher = more Wolbachia per host cell than the plate typical
- Active means: 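Active if absolute robust z reaches 1.5 in two or more of three replicates, leaving out multi- or no-target dsRNAs, genes unexpressed in JW18 and A1 wells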

CG6168 [DRSC10596] scored Wolbachia per cell robust z, rep 1 = -0.333; Wolbachia per cell robust z, rep 2 = -0.806; Wolbachia per cell robust z, rep 3 = -0.936; inactive.
Against Cys [DRSC16637], the entry reads Wolbachia per cell robust z, rep 1 = -0.573; Wolbachia per cell robust z, rep 2 = 0.00776; Wolbachia per cell robust z, rep 3 = 1.08; inactive.
Against Cys [DRSC27796], the values are Wolbachia per cell robust z, rep 1 = -1.45; Wolbachia per cell robust z, rep 2 = -0.455; Wolbachia per cell robust z, rep 3 = -1.38; inactive.
Silencing of kek5 [DRSC19438] came out at: Wolbachia per cell robust z, rep 1 = -0.0884; Wolbachia per cell robust z, rep 2 = 0.605; Wolbachia per cell robust z, rep 3 = 0.0553; inactive.
kek5 [DRSC24470] gave Wolbachia per cell robust z, rep 1 = -1.96; Wolbachia per cell robust z, rep 2 = -0.382; Wolbachia per cell robust z, rep 3 = -1.73; active.
kek5 [DRSC39004] scored Wolbachia per cell robust z, rep 1 = -0.603; Wolbachia per cell robust z, rep 2 = -2; Wolbachia per cell robust z, rep 3 = 0.159; inactive.
For Pig1 [DRSC24991], the entry reads Wolbachia per cell robust z, rep 1 = -0.104; Wolbachia per cell robust z, rep 2 = -0.609; Wolbachia per cell robust z, rep 3 = 0.273; inactive.
With knock-down of Nf-YB [DRSC02057], the screen gave Wolbachia per cell robust z, rep 1 = -0.909; Wolbachia per cell robust z, rep 2 = -0.395; Wolbachia per cell robust z, rep 3 = -0.672; inactive.

2 successive records from above:
kek5 [DRSC24470] → Wolbachia per cell robust z, rep 1: -1.96; Wolbachia per cell robust z, rep 2: -0.382; Wolbachia per cell robust z, rep 3: -1.73; activity call: active
kek5 [DRSC39004] → Wolbachia per cell robust z, rep 1: -0.603; Wolbachia per cell robust z, rep 2: -2; Wolbachia per cell robust z, rep 3: 0.159; activity call: inactive

More records follow.
Against Rab3 [DRSC07523], the values are Wolbachia per cell robust z, rep 1 = 0.316; Wolbachia per cell robust z, rep 2 = -4.87; Wolbachia per cell robust z, rep 3 = -0.291; inactive.
Knock-down of esc [DRSC03529] resulted in: Wolbachia per cell robust z, rep 1 = -11.4; Wolbachia per cell robust z, rep 2 = -1.75; Wolbachia per cell robust z, rep 3 = -11.8; active.
With knock-down of esc [DRSC28970], the screen gave Wolbachia per cell robust z, rep 1 = 0.0163; Wolbachia per cell robust z, rep 2 = -0.745; Wolbachia per cell robust z, rep 3 = 0.155; inactive.
Knock-down of CG9628 [DRSC11082] came out at: Wolbachia per cell robust z, rep 1 = 0.81; Wolbachia per cell robust z, rep 2 = -3.18; Wolbachia per cell robust z, rep 3 = 1.05; inactive.
For CG9628 [DRSC26359], the entry reads Wolbachia per cell robust z, rep 1 = -0.131; Wolbachia per cell robust z, rep 2 = 0.34; Wolbachia per cell robust z, rep 3 = -7.18; inactive.
For CG3748 [DRSC02716], the entry reads Wolbachia per cell robust z, rep 1 = 0.413; Wolbachia per cell robust z, rep 2 = -0.786; Wolbachia per cell robust z, rep 3 = -0.179; inactive.
For CG3748 [DRSC29984], the entry reads Wolbachia per cell robust z, rep 1 = 0.0124; Wolbachia per cell robust z, rep 2 = -0.64; Wolbachia per cell robust z, rep 3 = -0.147; inactive.
Against CG3748 [DRSC39015] the deposit lists Wolbachia per cell robust z, rep 1 = 0.861; Wolbachia per cell robust z, rep 2 = 0.501; Wolbachia per cell robust z, rep 3 = 0.00771; inactive.
Ctl2 [DRSC14423] showed Wolbachia per cell robust z, rep 1 = 0.605; Wolbachia per cell robust z, rep 2 = 0.545; Wolbachia per cell robust z, rep 3 = -0.0699; inactive.
Silencing of Ctl2 [DRSC29712] gave: Wolbachia per cell robust z, rep 1 = -0.752; Wolbachia per cell robust z, rep 2 = 0.693; Wolbachia per cell robust z, rep 3 = 0.739; inactive.
Silencing of btsz [DRSC15320] resulted in: Wolbachia per cell robust z, rep 1 = 0.172; Wolbachia per cell robust z, rep 2 = 1.4; Wolbachia per cell robust z, rep 3 = 0.594; inactive.
After knock-down of btsz [DRSC16231], the screen gave Wolbachia per cell robust z, rep 1 = -1.92; Wolbachia per cell robust z, rep 2 = -0.841; Wolbachia per cell robust z, rep 3 = -2.1; inactive.
btsz [DRSC23250] scored Wolbachia per cell robust z, rep 1 = -2.91; Wolbachia per cell robust z, rep 2 = 0.323; Wolbachia per cell robust z, rep 3 = 0.148; inactive.
For btsz [DRSC28867], the entry reads Wolbachia per cell robust z, rep 1 = 0.348; Wolbachia per cell robust z, rep 2 = 1.08; Wolbachia per cell robust z, rep 3 = -0.0224; inactive.
For lncRNA:CR33987 [DRSC26079] the deposit lists Wolbachia per cell robust z, rep 1 = -2.22; Wolbachia per cell robust z, rep 2 = -0.658; Wolbachia per cell robust z, rep 3 = 0.215; inactive.
fzo [DRSC16954] gave Wolbachia per cell robust z, rep 1 = -0.798; Wolbachia per cell robust z, rep 2 = -1.31; Wolbachia per cell robust z, rep 3 = -0.597; inactive.
